Experimental data reported in ChEMBL document CHEMBL6078649, “Discovery of Chalcone Derivatives as Bifunctional Molecules with Anti-SARS-CoV-2 and Anti-inflammatory Activities” (J Nat Prod, 2024).

Target: Replicase polyprotein 1ab (Severe acute respiratory syndrome coronavirus 2) (UniProt P0DTD1)
Conditions: time 50.0 min

In the case of `O=C(/C=C/c1cc(O)c(O)c(O)c1)c1ccc(F)cc1`, the Kinact is reported as 4.5 10^-2/min.
